From PubChem BioAssay AID1626 (SRMLSC, 2009)
This is one part of the list. Activity calls are given as the source filed them. Rule as the data show it: inconclusive = inhibition above about 80% without an active follow-up result; inactive = below that; test concentration not stated here.

assay: M. tuberculosis H37Rv growth inhibitors, H37Rv strain (AID 1626); conditions: active compounds read high, concentration not given here;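 also: bacteria incubated seven days before Alamar blue readout; 0% = bacteria only wells and 100% = bacteria with antibiotic wells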

SMILES | inhibition
Cc1c2c(nc3ccccc13)SC(C(Cl)Cl)C2 (stereo not given) | inactive: 3.76%
Cc1cc(=O)[nH]c(N[N+](=O)[O-])n1 | inactive: -6.45%
O=C(OC1CN2CCC1CC2)C12CC3CC(CC(C3)C1)C2 (stereo not given) | inactive: -2.59%
COc1cc(I)ccc1[As](=O)(O)O | inactive: -6.74%
COc1ccc2nc(NP(=O)(c3ccccc3)c3ccccc3)sc2c1 | inactive: 1.91%
ClCCSc1nnc(-c2cccnc2)o1 | inactive: -12.2%
CC(C)c1ccc(OP(=O)(Nc2ccccn2)Oc2ccccc2F)cc1 (stereo not given) | inactive: -1.07%
CC(C)NC(=O)NP(=O)(Oc1ccccc1)Oc1ccccc1 | inactive: 8.43%
C[As](=O)(O)c1cccc(C(=O)O)c1 | inactive: -6.02%
O=[As](O)(c1ccc(O)cc1)c1ccccc1O | inactive: 10.1%
Cc1ccc2nc3c(c(C)c2c1)CC(C(Cl)Cl)S3 (stereo not given) | inactive: -4.05%
CCOC(=O)Nc1cccc([As](=O)(O)O)c1 | inactive: -6.24%
O=P(Nc1ccccn1)(c1cccc2ccccc12)c1cccc2ccccc12 | inactive: 3.34%
Cc1cc(SC(NC=O)C(Cl)(Cl)Cl)ncn1 (stereo not given) | inactive: -0.85%
O=[N+]([O-])c1ccc(Nc2ccc(Oc3ccc([N+](=O)[O-])cc3[N+](=O)[O-])cc2)c([N+](=O)[O-])c1 | inactive: 3.41%
Cc1cc(SC(NC(=O)c2ccccc2)C(Cl)(Cl)Cl)nc(C(C)C)n1 (stereo not given) | inactive: -5.31%
CCOC(=O)c1ccc(NC(=O)C(C)(CCl)SC)cc1 (stereo not given) | inactive: -5.69%
CCC(C)N(CC(C)C)C(=S)SC(NC(C)=O)C(Cl)(Cl)Cl (stereo not given) | inactive: -3.37%
COP1(=S)c2c(C)nn(CCC#N)c2N=C(c2ccc(F)cc2)N1C (stereo not given) | inactive: 0.5%
CC(C)/C=N\N=C(\N)N[N+](=O)[O-] | inactive: 2.36%
CN(C(=O)Cc1ccc(Cl)c(Cl)c1)[C@@H]1CCCC[C@H]1N1CCCC1 | inactive: 3.64%
CC1(CBr)Cn2c(nc3ccccc3c2=O)S1 (stereo not given) | inactive: -10.6%
O=[As](O)(c1ccccc1Br)c1ccccc1Br | inactive: -6.63%
O=P1(Nc2ccccn2)COc2ccccc2OC1 | inactive: -0.11%
CN(CCCl)Cc1cc(Cl)c(NC2=NCCN2)c(Cl)c1 | inactive: -2.27%
CC(C)(C)C(=O)NC(Sc1ncccn1)C(Cl)(Cl)Cl (stereo not given) | inactive: 1.16%
Clc1n[nH]nc1-c1nn[nH][15n]1 | inactive: -1.95%
O=P1(Nc2ncccn2)COc2ccccc2OC1 | inactive: -3.64%

SMILES | inhibition
Nc1cccc([As](=O)(O)c2ccccc2)c1 | inactive: -6.61%
O=P1(Nc2ccc(Br)cn2)COc2ccccc2OC1 | inactive: -14.6%
Cc1ccc(OCC(=O)OC2CN3CCC2CC3)cc1 (stereo not given) | inactive: -5.49%
O=[As](O)(c1cccs1)c1cccs1 | inactive: 1.1%
CC1CCC(C(C)C)C(OP(=O)(Nc2ccccn2)c2ccccc2)C1 (stereo not given) | inactive: -0.2%
Cc1nn(-c2ccccc2)c2c1P(=O)(N1CCOCC1)N(C)C(c1ccccc1)=N2 (stereo not given) | inactive: -8.48%
CN(C)C1(CNC(=O)c2ccc(S(C)(=O)=O)cc2)CCCCC1 | inactive: -3.12%
O=C(/C=C/c1ccccc1)OC1CN2CCC1CC2 (stereo not given) | inactive: 0.98%
NC(=O)Nc1ccc([As](=O)(O)O)cc1 | inactive: -9.41%
CN(C(=O)Cc1ccccc1)[C@@H]1CC[C@]2(CCCO2)C[C@H]1N1CCCC1 | inactive: -9.01%
CCOP1(=S)c2c(C)nn(CCC#N)c2N=C(c2ccc(F)cc2)N1C (stereo not given) | inactive: -7.14%
CN(C(=O)Cc1ccc(Cl)c(Cl)c1)[C@H]1CC[C@@]2(CCCO2)C[C@@H]1N1CCCC1 | inactive: -1.74%
O=[N+]([O-])c1ccc2c(c1)nnn2O | inactive: 1.18%
O=P(Nc1nccs1)(c1ccccc1)c1nc2ccccc2s1 (stereo not given) | inactive: 15.9%
O=P(Nc1nccs1)(Oc1ccccc1)Oc1ccccc1 | inactive: 1.85%
CCOP1(=S)c2c(C)nn(CCC#N)c2N=C(c2ccccc2F)N1C (stereo not given) | inactive: 1.3%
CS(=O)(=O)c1cc([N+](=O)[O-])c2no[n+]([O-])c2c1 | inactive: -12.7%
Nc1ccccc1[As](=O)(O)c1ccccc1 | inactive: 6.07%
O=C(O)COc1ccc([As](=O)(O)O)cc1[N+](=O)[O-] | inactive: -1.68%
Nc1cccc2c([As](=O)(O)O)cccc12 | inactive: -10.5%
CCOP(=O)(Nc1cccc2ccccc12)OCC | inactive: 0.04%
COc1cc(C2NCCC3(OCCO3)C2(C)C)cc(OC)c1OC (stereo not given) | inactive: 2.21%
O=C(OC1CN2CCC1CC2)c1ccc(Cl)cc1 (stereo not given) | inactive: -7%
COc1cc(C(=O)NCC2(N3CCOCC3)CCCCC2)cc(Cl)c1OC(C)C | inactive: 8.36%
O=[As](O)(O)c1cccnc1 | inactive: 2.66%
O=[As](O)(c1cccc(O)c1)c1cccc(O)c1 | inactive: -6.2%
Cc1cccc(OCC(=O)OC2CN3CCC2CC3)c1 (stereo not given) | inactive: -4.84%
